Values of other authors in US6559178B1 (priority 2002, dated 2003).

System: human epidermoid cells, virally infected with HSV-2
Conditions: for protein synthesis inhibition observed: at around 1 ng/ml; for inhibition of hyperactive protein synthesis: by ~5 ng/ml, HSV-2 infected human epidermoid cells

Substance	protein synthesis inhibition observed	inhibition of hyperactive protein synthesis [%]
Roridin A	almost no protein synthesis inhibition	99
Satratoxin G	almost no protein synthesis inhibition	99
